According to publication PMC10801580, “Isolation and Characterization of Neutralizing Monoclonal Antibodies from a Large Panel of Murine Antibodies against RBD of the SARS-CoV-2 Spike Protein” (2024):
Values joined by “and” are separate entries in the source; they are usually repeats but may differ in a detail not shown here. Equal entries are not always repeated. Where two headings read alike, the source gives them in different places.

Key:
murine 3-12B12-F4 = conditions: read off a plot
[1] = 0.0061µg/ml (colour key), read off a plot
[2] = 0.012µg/ml (colour key), read off a plot
[3] = 0.037µg/ml (colour key), read off a plot
[4] = 3µg/ml (colour key), read off a plot

WT RBD-6xHis (receptor-binding domain of the SARS-CoV-2 spike protein) D405N
response (murine 3-12B12-F4; 0.0061µg/ml (colour key)): 0.2 Abs (405 nm)
response (murine 3-12B12-F4; 0.012µg/ml (colour key)): 0.25 Abs (405 nm)
response (murine 3-12B12-F4; 0.037µg/ml (colour key)): 0.37 Abs (405 nm)
response (murine 3-12B12-F4; 0.11µg/ml (colour key)): 0.6 Abs (405 nm)
response (murine 3-12B12-F4; 0.33µg/ml (colour key)): 0.95 Abs (405 nm)
response (murine 3-12B12-F4; 1µg/ml (colour key)): 1.2 Abs (405 nm)
response (murine 3-12B12-F4; 3µg/ml (colour key)): 1.3 Abs (405 nm)
response (murine 9-8F2-B11): 1.4 Abs (405 nm)
response (murine 9-8F2-B11; [1]): 0.45 Abs (405 nm)
response (murine 9-8F2-B11; [2]): 0.77 Abs (405 nm)
response (murine 9-8F2-B11; [3]): 1.1 Abs (405 nm)
response (murine 9-8F2-B11; [4]): 1.3 Abs (405 nm)
response (murine 9-8F2-B11; read off a plot): 1.3 Abs (405 nm)

WT RBD-6xHis (receptor-binding domain of the SARS-CoV-2 spike protein) Q493R
response (murine 3-12B12-F4; 0.0061µg/ml (colour key)): 0.2 Abs (405 nm)
response (murine 3-12B12-F4; 0.012µg/ml (colour key)): 0.58 Abs (405 nm)
response (murine 3-12B12-F4; 0.037µg/ml (colour key)): 1.1 Abs (405 nm)
response (murine 3-12B12-F4; 0.11µg/ml (colour key)): 1.8 Abs (405 nm)
response (murine 3-12B12-F4; 0.33µg/ml (colour key)): 2.1 Abs (405 nm)
response (murine 3-12B12-F4; 1µg/ml (colour key)): 2.1 Abs (405 nm)
response (murine 3-12B12-F4; 3µg/ml (colour key)): 2.1 Abs (405 nm)
response (murine 9-8F2-B11): 2.1 Abs (405 nm) and 2 Abs (405 nm)
response (murine 9-8F2-B11; [1]): 0.63 Abs (405 nm)
response (murine 9-8F2-B11; [2]): 1.2 Abs (405 nm)
response (murine 9-8F2-B11; [3]): 1.7 Abs (405 nm)
response (murine 9-8F2-B11; [4]): 2.1 Abs (405 nm)
response (murine 9-8F2-B11; read off a plot): 2.2 Abs (405 nm)

WT RBD-6xHis (receptor-binding domain of the SARS-CoV-2 spike protein) L452R
response (murine 3-12B12-F4; 0.0061µg/ml (colour key)): 0.1 Abs (405 nm)
response (murine 3-12B12-F4; 0.012µg/ml (colour key)): 0.12 Abs (405 nm)
response (murine 3-12B12-F4; 0.037µg/ml (colour key)): 0.13 Abs (405 nm)
response (murine 3-12B12-F4; 0.11µg/ml (colour key)): 0.2 Abs (405 nm)
response (murine 3-12B12-F4; 0.33µg/ml (colour key)): 0.37 Abs (405 nm)
response (murine 3-12B12-F4; 1µg/ml (colour key)): 0.42 Abs (405 nm)
response (murine 3-12B12-F4; 3µg/ml (colour key)): 0.72 Abs (405 nm)
response (murine 9-8F2-B11): 2.4 Abs (405 nm) and 2.3 Abs (405 nm)
response (murine 9-8F2-B11; [1]): 0.78 Abs (405 nm)
response (murine 9-8F2-B11; [2]): 1.3 Abs (405 nm)
response (murine 9-8F2-B11; [3]): 1.8 Abs (405 nm)
response (murine 9-8F2-B11; [4]): 2.3 Abs (405 nm)
response (murine 9-8F2-B11; read off a plot): 2.1 Abs (405 nm)
